A mixed list of measured activities; the numbers were collected in NIAID ChemDB.

Shared fields: target-level tests; organism: HIV-1; target: Reverse transcriptase

Lines come from different laboratories, so protocols vary. ICn: concentration for n% inhibition. Fold resistance has wild type as its base. Blank or dashed fields: not listed here.

smiles | strain or isolate | mutations | method | endpoint | value
Cc1cn([C@H]2C=C[C@@H](COP(=O)(O)OP(=O)(O)OP(=O)(O)O)O2)c(=O)[nH]c1=O |  | RT-K65R | nucleotide incorporation / radiometric | fold resistance | 2.79
O=c1c2cccn2ccn1CCNC(=S)Nc1ccc(Br)cn1 |  | RT-Y188L | nucleotide incorporation | Ki | 0.61 µM
Nc1ccn([C@@H]2CS[C@H](COP(=O)(O)OP(=O)(O)OP(=O)(O)O)O2)c(=O)n1 |  | RT-K65R | nucleotide incorporation / radiometric | Ki | 15 µM
Cc1cn([C@H]2C=C[C@@H](COP(=O)(O)OP(=O)(O)OP(=O)(O)O)O2)c(=O)[nH]c1=O |  |  |  | Ki | 0.0014 µM
O=C(O)Cn1cnc2c(Oc3ccccc3[N+](=O)[O-])nc(NC(=O)OCc3ccccc3)nc21 | NNRTI-resistant | K103N | nucleotide incorporation / radiometric | Ki | 160 µM
Cc1cn([C@H]2C=C[C@@H](COP(=O)(O)OP(=O)(O)OP(=O)(O)O)O2)c(=O)[nH]c1=O |  | RT-Y188L | RT activity | Ki | 0.04 µM
CCN1c2ncc(CCc3ccccc3)cc2C(=O)N(C)c2ccc(-c3ccc[nH]3)nc21 |  | RT-Y181C | nucleotide incorporation / radiometric | IC50 | <1 µM
Cc1c(Sc2ccccc2)n(COCCO)c(=O)[nH]c1=O |  | RT-I135T |  | fold resistance | 4
Cc1ccc2c(c1)n(CCNC(=S)Nc1ccc(Br)cn1)c(=O)c1cccn12 |  | RT-Y181I | nucleotide incorporation | Ki | 0.7 µM
Nc1ncnc2c1ncn2CCOCP(=O)(O)OP(=O)(O)OP(=O)(O)O |  |  | nucleotide incorporation / radiometric | Ki | 0.21 µM
O=c1c2cccn2c2ccccc2n1CCNC(=S)Nc1ccc(Br)cn1 |  | RT-L100I | nucleotide incorporation | Ki | 0.105 µM
Cc1cn([C@H]2CC[C@@H](COP(=O)(O)OP(=O)(O)OP(=O)(O)O)O2)c(=O)[nH]c1=O |  | RT-N137A | nucleotide incorporation / radiometric | fold resistance | 1
O=c1c2cccn2c2cc(Cl)c(Cl)cc2n1CCNC(=S)Nc1ccc(Br)cn1 |  | RT-K103N | nucleotide incorporation | Ki | 0.3 µM
Nc1ccn([C@H]2CC[C@@H](COP(=O)(O)OP(=O)(O)OP(=O)(O)O)O2)c(=O)n1 |  | RT-Q151M | nucleotide incorporation / radiometric | fold resistance | 2.44
Cc1cc2c(cc1C)n1cccc1c(=O)n2CCNC(=S)Nc1ccc(Br)cn1 |  | RT-K103N | nucleotide incorporation | Ki | 0.2 µM
O=C(O)Cn1cnc2c(=O)[nH]c(NC(=O)OCc3ccccc3)nc21 | NNRTI-resistant | L100I | nucleotide incorporation / radiometric | Ki | 30 µM

The last 2 rows once more:

smiles,strain or isolate,mutations,method,endpoint,value
Cc1cc2c(cc1C)n1cccc1c(=O)n2CCNC(=S)Nc1ccc(Br)cn1,,RT-K103N,nucleotide incorporation,Ki,0.2 µM
O=C(O)Cn1cnc2c(=O)[nH]c(NC(=O)OCc3ccccc3)nc21,NNRTI-resistant,L100I,nucleotide incorporation / radiometric,Ki,30 µM